Pooled drug test results. Numbers come from NIAID ChemDB, via PubChem.

All rows: enzyme or target tests

Percent inhibition refers to the dose given; in toxicity tests it is the harm to the cells.

| SMILES | read by | organism | changes | read-out | strain or isolate | tested at | target | result |
|---|---|---|---|---|---|---|---|---|
| COC(=O)c1cccc(-c2ccc(NC(=O)CSc3nnnn3-c3ccc(C)cc3Cl)c(Cl)c2)c1 | PicoGreen / fluorescence | HIV-1 |  | IC50 | WT |  | Reverse transcriptase | <1 µM |
| CCOC1C[C@@H](C(=O)NC(C)(C)C)N(C(=O)[C@@H](O)[C@H](Cc2ccccc2)NC(=O)[C@H](CS(C)(=O)=O)NC(=O)COc2cccc3ccccc23)C1 |  | HIV-1 |  | inhibition |  | 0.05 µM | Protease | 8.8% |
| CC(C)(C)c1ccc(-n2nnnc2SCC(=O)Nc2ccc(NC(=O)Cc3ccccc3Cl)cc2Cl)c(Cl)c1 | PicoGreen / fluorescence | HIV-1 |  | IC50 | WT |  | Reverse transcriptase | <1 µM |
| O=C(Cc1ccc(F)cc1)Nc1cn2ccn(Cc3cccc(Cl)c3)c(=O)c2c(O)c1=O | ELISA | HIV-1 |  | IC50 |  |  | Integrase | <0.01 µM |
| Cc1cn([C@H]2CC[C@@H](COP(=O)(O)OP(=O)(O)OP(=O)(O)O)O2)c(=O)[nH]c1=O |  | HIV | RT-L74V T215Y | fold resistance |  |  | Reverse transcriptase | 10.9 |
| CC(C)(C)C(=O)c1cn2c(c(O)c1=O)C(=O)N(Cc1ccc(F)cc1)CC2(C)C | ELISA | HIV-1 |  | IC50 |  |  | Integrase | 0.01–0.1 µM |
| CC(C)(C)NC(=O)[C@H]1N(C(=O)[C@@H](O)[C@H](Cc2ccccc2)NC(=O)[C@H](CC(N)=O)NC(=O)COc2ccc3ccccc3n2)CSC1(C)C |  | HIV-1 |  | IC50 |  |  | Protease | <0.05 µM |
| O=C1c2c(O)c(=O)ccn2CCN1Cc1ccc(F)c(Cl)c1 | ELISA | HIV-1 |  | IC50 |  |  | Integrase | 0.01–0.1 µM |
| COC(=O)NS(=O)(=O)c1ccc(NC(=O)CSc2nnnn2-c2ccc(C3CC3)cc2Cl)c(Cl)c1 | PicoGreen / fluorescence | HIV-1 | RT-K103 Y181C | IC50 |  |  | Reverse transcriptase | <1 µM |
| Nc1ncnc2c1ncn2[C@H]1CC[C@@H](COP(=O)(O)OP(=O)(O)OP(=O)(O)O)O1 |  | HIV | RT-L74V T215Y | Ki |  |  | Reverse transcriptase | 20 µM |
| CC[C@H](C)[C@H](NC(=O)[C@@H]1CCCN1C(=O)[C@H](O)[C@H](Cc1ccccc1)NC(=O)[C@H](CC(N)=O)NC(=O)CCc1ccccc1)C(=O)N[C@H](C(N)=O)C(C)C |  | HIV-1 |  | inhibition |  | 5 µM | Protease | 80.7% |
| CC(C)=CCN1Cc2cccc3[nH]c(=S)n(c23)C[C@@H]1C | nucleotide incorporation | HIV | RT-W266S | fold resistance |  |  | Reverse transcriptase | >296 |
| CC(C)(NC(=O)[C@@H]1CCCN1C(=O)[C@@H](O)[C@H](Cc1ccccc1)NC(=O)[C@H](CC(N)=O)NC(=O)OCc1ccccc1)C(N)=O |  | HIV-1 |  | inhibition |  | 5 µM | Protease | >90% |
| CC(C)(C#Cc1ccc(NC(=O)CSc2nnnn2-c2ccc(C(C)(C)C)cc2Cl)c(Cl)c1)CO | PicoGreen / fluorescence | HIV-1 | RT-K103 Y181C | IC50 |  |  | Reverse transcriptase | <1 µM |
| Nc1nc2c(ncn2[C@H]2CO[C@@H](COP(=O)(O)OP(=O)(O)OP(=O)(O)O)O2)c(=O)[nH]1 | radiometric | HIV | RT-K65R K103N Q151M | Ki |  |  | Reverse transcriptase | 0.221 µM |
| CC(C)(C#Cc1ccc(NC(=O)CSc2nnnn2-c2ccc(C3CC3)cc2Cl)c(Cl)c1)NC(=O)c1ccc[n+]([O-])c1 | PicoGreen / fluorescence | HIV-1 |  | IC50 | WT |  | Reverse transcriptase | <1 µM |
| CC(C)(C)C(=O)Nc1cn2ccn(Cc3cccc(Cl)c3)c(=O)c2c(O)c1=O | ELISA | HIV-1 |  | IC50 |  |  | Integrase | <0.01 µM |
| CC(C)(C)c1ccc(-n2nnnc2SCC(=O)Nc2ccc(C(=O)Nc3ccc(C(=O)O)cc3)cc2Cl)c(Cl)c1 | PicoGreen / fluorescence | HIV-1 | RT-K103 Y181C | IC50 |  |  | Reverse transcriptase | <1 µM |
| CC(C)(C)NC(=O)[C@@H]1CSCN1C(=O)[C@@H](O)[C@H](Cc1ccccc1)NC(=O)[C@@H](NC(=O)COc1cccc2ccccc12)c1ccccc1 |  | HIV-1 |  | inhibition |  | 0.05 µM | Protease | 45.2% |
| Cc1ccc(-n2nnnc2SCC(=O)Nc2ccc(-c3ccc(OCC(=O)O)cc3)cc2Cl)c(Cl)c1 | PicoGreen / fluorescence | HIV-1 |  | IC50 | WT |  | Reverse transcriptase | <1 µM |
| CC(C)(C)OC(=O)N[C@@H](Cc1ccccc1)C(=O)N[C@@H](CO)C(=O)N[C@@H](Cc1ccccc1)[C@@H](O)C(=O)NCC1CCCCC1 |  | HIV-1 |  | inhibition |  | 1000 µM | Protease | 66.7% |

Lines come from different laboratories, so protocols vary. Blank or dashed fields: not listed here. ICn is the concentration giving n% inhibition. Two numbers with a dash give a range or band. Fold resistance has wild type as its base.